## Kdimer by position in the HIV-1 leader RNA

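Mutant RNA libraries with 1G, 2G or 3G starts, with or without cap, were folded at 37 °C for 30 min. Monomer and dimer bands were cut from native gels after folding in high salt (300 mM KCl, 5 mM MgCl2) or low salt (40 mM KCl, 0.1 mM MgCl2). Kdimer compares mutation frequencies in monomer and dimer, corrected for sequencing errors.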

Sequence of the HIV-1 NL4-3 5' RNA, positions 1 to 437, as numbered in the source:
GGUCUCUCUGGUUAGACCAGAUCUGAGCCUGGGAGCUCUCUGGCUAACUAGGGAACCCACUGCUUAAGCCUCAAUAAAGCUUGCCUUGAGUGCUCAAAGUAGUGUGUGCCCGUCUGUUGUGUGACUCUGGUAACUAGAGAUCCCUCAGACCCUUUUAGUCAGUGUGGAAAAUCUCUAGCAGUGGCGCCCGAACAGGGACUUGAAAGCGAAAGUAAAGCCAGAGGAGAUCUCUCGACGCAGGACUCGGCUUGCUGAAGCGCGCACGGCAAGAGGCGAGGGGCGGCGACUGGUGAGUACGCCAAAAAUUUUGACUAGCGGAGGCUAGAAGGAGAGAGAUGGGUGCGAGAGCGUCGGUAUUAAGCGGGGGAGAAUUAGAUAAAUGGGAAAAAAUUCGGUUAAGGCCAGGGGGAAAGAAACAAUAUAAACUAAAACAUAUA

Scale: median log2 Kdimer over the changes at a position; positive = changes inhibit dimerization, negative = changes enhance it.
One numbering serves 1G, 2G and 3G.
A position is written with its base.

position,domain,1G capped high-salt,1G capped low-salt
G79,PolyA,0.00,0.21
C80,PolyA,-0.16,-0.02
U81,PolyA,0.01,0.20
U82,PolyA,0.12,0.02
G83,PolyA,-0.26,-0.19
C84,PolyA,-0.44,-0.15
C85,PolyA,-0.54,-0.20
U86,PolyA,0.10,0.23
U87,PolyA,0.16,0.34
G88,PolyA,0.28,-0.08
A89,PolyA,0.43,0.31
G90,PolyA,0.12,-0.44
U91,PolyA,0.08,-0.13
G92,PolyA,0.79,0.39
C93,PolyA,0.27,-0.18
U94,PolyA,0.05,0.33
C95,PolyA,0.07,0.05
A96,PolyA,-0.08,0.15
A97,PolyA,0.20,0.23
A98,PolyA,0.16,0.16
G99,PolyA,0.18,0.16
U100,PolyA,0.16,0.10
A101,PolyA,0.74,0.43
G102,PolyA,-0.11,-0.10
U103,PolyA,0.14,0.21
G104,PolyA,0.12,-0.11
U105,U5,-0.22,0.13
G106,U5,-0.06,0.49
U107,U5,0.27,0.15
G108,U5,-0.14,0.04
C109,U5,-0.13,0.59
C110,U5,-0.20,0.71
C111,U5,-0.06,0.90
G112,U5,-0.04,0.14
U113,none,-0.20,0.30
C114,none,0.22,0.11
U115,none,0.02,0.36
G116,none,0.27,-0.35
U117,none,0.00,-0.30
U118,none,0.06,-0.12
G119,none,-0.27,-0.22
U120,none,0.12,0.32
G121,none,-0.35,-0.57
U122,none,-0.24,0.36
G123,none,-0.38,-0.36
A124,none,0.25,0.11
C125,PAS,-0.37,0.37
U126,PAS,0.28,0.30
C127,PAS,-0.35,0.40
U128,PAS,-0.04,0.37
G129,PAS,0.01,0.56
G130,PAS,0.15,0.30
U131,PAS,0.13,0.22
A132,PBS,0.01,0.06
A133,PBS,-0.01,0.11
C134,PBS,-0.15,-0.17
U135,PBS,-0.08,0.00
A136,PBS,-0.14,0.02
G137,PBS,-0.13,0.49
A138,PBS,-0.02,0.58
G139,PBS,-0.08,0.48
A140,PBS,-0.12,0.32
U141,PBS,-0.09,0.10
C142,PBS,0.02,0.01
C143,PBS,-0.13,0.09
C144,PBS,-0.03,0.19
U145,PBS,0.11,0.15
C146,PBS,0.04,-0.01
A147,PBS,-0.06,-0.03
G148,PBS,0.07,0.13
A149,PBS,0.18,-0.12
C150,PBS,0.06,0.44
C151,PBS,0.03,-0.16
C152,PBS,-0.05,-0.06
U153,PBS,0.03,0.06
U154,PBS,0.02,-0.03
U155,PBS,0.00,-0.03
U156,PBS,-0.02,-0.24
A157,PBS,0.03,-0.01
G158,PBS,-0.58,-0.28

The last 5 entries again:

position	domain	1G capped high-salt	1G capped low-salt
U154	PBS	0.02	-0.03
U155	PBS	0.00	-0.03
U156	PBS	-0.02	-0.24
A157	PBS	0.03	-0.01
G158	PBS	-0.58	-0.28

Data from the supplement of Ye et al. 2022, doi:10.1038/s41594-022-00746-2.